A mixed list of measured activities; the numbers were collected in NIAID ChemDB.

Shared fields: whole-cell or culture tests; agent: HIV-1; read-out: inhibition

Blank or dashed fields: not listed here. Inhibition is in % at the dose shown (toxicity tests: loss of growth or viability). Two numbers with a dash give a range or band. Rows are shuffled and stem from different studies.

SMILES | dose | setting | changes | method | strain or isolate | cells | result
O=S(=O)(O)c1c2ccccc2c(-c2c3nc(c(-c4c5ccccc5c(S(=O)(=O)O)c5ccccc45)c4ccc([nH]4)c(-c4c5ccccc5c(S(=O)(=O)O)c5ccccc45)c4nc(c(-c5c6ccccc6c(S(=O)(=O)O)c6ccccc56)c5ccc2[nH]5)C=C4)C=C3)c2ccccc12 | 5 µg/mL |  |  | β-galactosidase | IIIB | MAGI | 70%
CN(C(=O)[C@H](Cc1ccccc1)NC(=O)CN1C(=O)NC2(CCCCC2)C1=O)c1ccc(Cl)cc1 | 20 µM |  |  | fluorescence | NL4-3 |  | 98%
Cc1cn([C@H]2C[C@H](N=[N+]=[N-])[C@@H](COP(=O)(O)OCCO[C@H]3O[C@H](CO)[C@@H](O)[C@H](O)[C@@H]3O)O2)c(=O)[nH]c1=O | 1 µM | 11 d |  | RT activity | LAV-Bru | U-937 | 0%
CC(C)[C@H](NC(=O)[C@H](CO)NC(=O)[C@@H](N)CS)C(=O)N[C@H](C(=O)N[C@@H](CS)C(=O)NCC(=O)O)[C@@H](C)O | 0.3 µM |  |  | p24 | p13 | PBMC(PHA STIM.) + PBMC | 87%
O=c1ccnc(N2CCCC2)[nH]1 | 10 µM |  |  | XTT / cell fusion | IIIB | CEM-SS | 0%
C=C1[C@H](n2cnc3c(N)ncnc32)O[C@@H]1CO | 100 µg/mL |  |  | antigen |  | MT-4 | 99.9%
CC1(C)[C@@H](O[C@H]2O[C@H](C(=O)O)[C@@H](O)[C@H](O)[C@H]2O[C@@H]2O[C@H](C(=O)O)[C@@H](O)[C@H](O)[C@H]2O)CC[C@]2(C)[C@H]3C(=O)C=C4[C@@H]5C[C@@](C)(C(=O)O)CC[C@]5(C)CC[C@@]4(C)[C@]3(C)CC[C@@H]12 | 300 µM |  |  | antigen | IIIB | MT-4 | 68.4%
CN(C(=O)[C@H](Cc1ccccc1)NC(=O)Cc1cccc2ccccc12)c1ccc(Cl)cc1 | 2 µM |  |  | fluorescence | NL4-3 |  | 98%
Nc1ncnc2c1ncn2[C@@H]1O[C@H](CO)[C@H]1N | 10 µg/mL |  |  | antigen |  | MT-4 | 94%
CCCCCCCCCCCCCCCCOP(=O)(OCCO[C@@H]1O[C@H](CO)[C@@H](O)[C@H](O)[C@@H]1O)OC[C@H]1O[C@@H](n2cc(C)c(=O)[nH]c2=O)C[C@@H]1N=[N+]=[N-] | 1 µM | 26 d |  | RT activity | LAV-Bru | CEM | 0%
S=C(NCCc1ccc(Cl)cc1)Nc1nccs1 | 1 µg/mL |  |  | cytopathic effect / XTT |  | MT-4 | 5–22%
C[C@H]1[C@H](O)[C@@H](C)/C=C/C=C/C=C/C=C/C=C/C=C/C=C/[C@H](O[C@@H]2O[C@H](C)[C@@H](O)[C@H](N)[C@@H]2O)C[C@@H]2O[C@](O)(C[C@@H](O)C[C@@H](O)CC[C@H](O)[C@@H](O)C[C@@H](O)CC(=O)O[C@H]1C)C[C@H](O)[C@H]2C(=O)O | 2.4 µM |  |  | p24 / RT activity | 93BR019 CLADE BF X4 (SI) | PBMC | 90%
C[C@@H]1CN(C(=O)c2ccccn2)CCN1C(=O)C(=O)c1c[nH]c2cccc(F)c12 | 10 µM |  |  | luciferase |  | HeLa + HELA CD4+/CCR5 | >98%
CO[C@]1(C)OC[C@H]([C@@H]2CC(=O)C[C@H](c3ccccc3)C23C(=O)OC(C)(C)OC3=O)O[C@@]1(C)OC | 0.0001 µM |  |  | MTT | NL4-3 | SupT1 | >45%
[N-]=[N+]=N[C@H]1[C@H](n2cnc3c(N)ncnc32)O[C@@H]1CO | 3 µg/mL |  |  | antigen |  | MT-4 | <10%
CCN(C(=O)[C@H](Cc1ccccc1)NC(=O)Cc1cccc2ccccc12)c1ccccc1 | 20 µM |  |  | fluorescence | NL4-3 |  | 98%
CCCCC(=O)OC[C@H]1O[C@@H](n2cnc3c(N)ncnc32)[C@@H]1CO | 3 µg/mL |  |  | antigen |  | MT-4 | 95%
CCCCCC1CN(C(=O)C(=O)c2c[nH]c3c(C(=O)OC)cccc23)CCN1C(=O)c1ccccc1 | 10 µM |  |  | luciferase |  | HeLa + HELA CD4+/CCR5 | 59%
O=C(NCCc1ccccc1)Nc1nc2c(Cl)cccc2s1 | 10 µg/mL |  |  | cytopathic effect / XTT |  | MT-4 | 19%
N=C1Sc2ccccc2C2=NCCCN12 | 1.92 µM |  |  | ELISA | 92HT599 | PBMC | 90%
OC[C@H]1O[C@@H](n2cnc3c(N4CCC(F)(F)C4)ncnc32)C[C@H]1O | 10 µM |  |  | XTT / cell fusion | IIIB | CEM-SS | 0%
CCCCCCCCCCCCCCCCOP(=O)(OC[C@H]1OC(O)[C@@H](O)[C@@H](O)[C@@H]1O)OC[C@H]1O[C@@H](n2cc(C)c(=O)[nH]c2=O)C[C@@H]1N=[N+]=[N-] | 0.2 µM | 11 d |  | RT activity | LAV-Bru | U-937 | 0%
O=c1ccnc(N2CCC[C@H]2CO)[nH]1 | 10 µM |  |  | visual reading / cell fusion | IIIB | CEM-SS | 4.1%
NS(=O)(=O)c1ccc(NC(=O)NCCc2ccccc2)cc1 | 1 µg/mL |  |  | cytopathic effect / XTT |  | MT-4 | 0%
Cc1ccc(-c2ccc3c(c2)C=C(C(=O)Nc2ccc(C[N+](C)(C)C4CCOCC4)cc2)CCC3)cc1 | 1 µM |  |  | p24 | Du104 CLADE C | PBMC | 100%
OC[C@H]1O[C@@H](n2cnc3c(N4C[C@@H](O)[C@@H](O)C4)ncnc32)C[C@H]1O | 10 µM |  |  | visual reading / cell fusion | IIIB | CEM-SS | 2%
CC1CN(C(=O)c2ccccc2)C(C)CN1C(=O)C(=O)c1c[nH]c2cccc(F)c12 | 10 µM |  |  | luciferase |  | HeLa + HELA CD4+/CCR5 | 94%
Cc1cccc2sc(NC(=O)NCCc3ccccc3)nc12 | 100 µg/mL |  |  | cytopathic effect / XTT |  | MT-4 | 50%
OC[C@@H]1CC[C@H](n2cnc3c(N4C[C@H](O)[C@@H](O)C4)ncnc32)O1 | 10 µM |  |  | visual reading / cell fusion | IIIB | CEM-SS | 3.6%
C=C(C)[C@@H]1CC[C@]2(C(=O)NCCCCCCCC(=O)N[C@@H](CC(C)C)[C@@H](O)CC(=O)O)CC[C@]3(C)[C@H](CC[C@@H]4[C@@]5(C)CC[C@H](O)C(C)(C)[C@@H]5CC[C@]43C)[C@@H]12 | 10 µM |  | GP41-K90R | syncytia | LAI | HeLa P4 + HeLa | >99%
C[C@H]1[C@H](O)[C@@H](C)/C=C/C=C/C=C/C=C/C=C/C=C/C=C/[C@H](O[C@@H]2O[C@H](C)[C@@H](O)[C@H](N)[C@@H]2O)C[C@@H]2O[C@](O)(C[C@@H](O)C[C@@H](O)CC[C@H](O)[C@@H](O)C[C@@H](O)CC(=O)O[C@H]1C)C[C@H](O)[C@H]2C(=O)O | 10 µg/mL |  |  | p24 / antigen | IIIB | H9 | 72%
O=C(C(=O)N1CCN(C(=O)c2ccc(-c3ccccn3)cc2S)CC1)c1c[nH]c2cccc(Cl)c12 | 10 µM |  |  | luciferase |  | HeLa + HELA CD4+/CCR5 | 86%
O=C(NCCc1ccccc1)Nc1nc2ccccc2s1 | 1 µg/mL |  |  | cytopathic effect / XTT |  | MT-4 | 53–63%
O=c1oc2cc(O)cc(O)c2c(O)c1-c1coc2c1c(=O)oc1cc(O)cc(O)c12 | 1 µM |  |  | MTT | IIIB | MT-4 | 60%
O=C1[C@@H](Cc2ccccc2)NC(=S)N1Cc1ccccc1 | 1 µg/mL |  |  | RT activity |  | MT-4 | 1%
O=S(=O)(O)c1ccc(-c2c3nc(c(-c4ccc(S(=O)(=O)O)cc4)c4ccc([n-]4)c(-c4ccc(S(=O)(=O)O)cc4)c4nc(c(-c5ccc(S(=O)(=O)O)cc5)c5ccc2[n-]5)C=C4)C=C3)cc1.[Gd+3] | 50 µg/mL |  |  | β-galactosidase | IIIB | MAGI | 69%
CC(C)[C@H](NC(=O)[C@H](CO)NC(=O)[C@@H](N)CSSCC(=O)O)C(=O)N[C@H](C(=O)N[C@@H](CSSCC(=O)O)C(=O)NCC(=O)O)[C@@H](C)O | 1.32 µM |  |  | p24 | BaL | PBMC(PHA STIM.) + PBMC | 60%
COC(=O)c1cccc2c(C(=O)C(=O)N3CCN(C(=O)c4ccccc4)C(C(C)C)C3)c[nH]c12 | 10 µM |  |  | luciferase |  | HeLa + HELA CD4+/CCR5 | 95%
CCCCCCCCCCCCCCCC(=O)OC[C@H]1O[C@@H](n2cnc3c(N)ncnc32)[C@@H]1CO | 10 µg/mL |  |  | antigen |  | MT-4 | 97%
Cc1ccc(C)c2c1NC(=O)C2CC(=O)N[C@@H](Cc1ccccc1)C(=O)N(C)c1cccc(F)c1 | 2 µM |  |  | fluorescence | NL4-3 |  | 0%
COc1ccc(F)c2c(C(=O)C(=O)N3CCN(C(=O)c4ccc(N)cc4)C[C@H]3C)c[nH]c12 | 10 µM |  |  | luciferase |  | HeLa + HELA CD4+/CCR5 | >98%
Cc1ccc(N(C)C(=O)[C@H](Cc2ccccc2)NC(=O)Cc2ccc3ccccc3c2)cc1 | 20 µM |  |  | fluorescence | NL4-3 |  | 99%
N=C1Sc2ccccc2C2=NCCCN12 | 1.89 µM |  |  | β-galactosidase | 92UG001 | PBMC | 90%
CN(C(=O)[C@H](Cc1ccccc1)NC(=O)CN1C(=O)NC2(CCCc3ccccc32)C1=O)c1ccccc1 | 20 µM |  |  | fluorescence | NL4-3 |  | 32%
COc1ccc(CCNC(=S)Nc2nccs2)cc1OC | 1 µg/mL |  |  | cytopathic effect / XTT |  | MT-4 | 4–44%

5 of the rows above, restated:

C[C@H]1[C@H](O)[C@@H](C)/C=C/C=C/C=C/C=C/C=C/C=C/C=C/[C@H](O[C@@H]2O[C@H](C)[C@@H](O)[C@H](N)[C@@H]2O)C[C@@H]2O[C@](O)(C[C@@H](O)C[C@@H](O)CC[C@H](O)[C@@H](O)C[C@@H](O)CC(=O)O[C@H]1C)C[C@H](O)[C@H]2C(=O)O ; dose: 10 µg/mL ; method: p24 / antigen ; strain or isolate: IIIB ; cells: H9 ; result: 72%
Cc1cccc2sc(NC(=O)NCCc3ccccc3)nc12 ; dose: 100 µg/mL ; method: cytopathic effect / XTT ; cells: MT-4 ; result: 50%
O=C1[C@@H](Cc2ccccc2)NC(=S)N1Cc1ccccc1 ; dose: 1 µg/mL ; method: RT activity ; cells: MT-4 ; result: 1%
N=C1Sc2ccccc2C2=NCCCN12 ; dose: 1.89 µM ; method: β-galactosidase ; strain or isolate: 92UG001 ; cells: PBMC ; result: 90%
OC[C@H]1O[C@@H](n2cnc3c(N4CCC(F)(F)C4)ncnc32)C[C@H]1O ; dose: 10 µM ; method: XTT / cell fusion ; strain or isolate: IIIB ; cells: CEM-SS ; result: 0%